Results taken from patent US20240368664A1, “LIVE YEAST BIOSENSORS AND METHODS OF USE THEREOF” (priority 2021, published 2024).

Key:
CpSte2 = assay: Native CpSte2 dose-response with Ebola sGP target peptide
mutant SsSte2 = assay: Directed-evolution SsSte2 mutant hits, dose-response with nucleocapsid intermediate and epitope peptides, mCherry; type: cell-based, Scheffersomyces stipites; settings: best hit after the second round of directed evolution

Row | SMILES | fold less compared to the cognate peptide (CpSte2) | fold higher concentration needed to induce expression levels equivalent to the native peptide (CpSte2; FIG. 20B) | EC50 (CpSte2; FIG. 20C) | EC50 (mutant SsSte2) | fold increase in signal intensity (mutant SsSte2)
1 | CC(C)[C@H](N)C(=O)N[C@@H](CC(N)=O)C(=O)N[C@@H](C)C(=O)N[C@H](C(=O)N[C@@H](CCC(=O)O)C(=O)N[C@@H](CC(=O)O)C(=O)N1CCC[C@H]1C(=O)N[C@@H](CO)C(=O)N[C@@H](CO)C(=O)NCC(=O)N[C@@H](Cc1ccc(O)cc1)C(=O)N[C@@H](Cc1ccc(O)cc1)C(=O)O)[C@@H](C)O | 1000 fold | 10 fold | 86 µM | – | –
2 | CC(C)[C@H](NC(=O)CNC(=O)[C@H](Cc1ccc(O)cc1)NC(=O)[C@H](CCC(N)=O)NC(=O)[C@@H]1CCCN1C(=O)[C@H](Cc1c[nH]c2ccccc12)NC(=O)[C@H](Cc1c[nH]cn1)NC(=O)[C@@H](N)Cc1c[nH]c2ccccc12)C(=O)N[C@@H](Cc1ccccc1)C(=O)N[C@@H](C)C(=O)N1CCC[C@H]1C(=O)NCC(=O)O | – | – | – | 3 µM | 3.4±0.3 fold
